Test system: Klebsiella pneumoniae
Details: INSRA1229

## GENTAMICIN
  MIC: 0.5 µg/mL

From ChEMBL document CHEMBL1255335 (Antimicrob Agents Chemother, 2008)
